# Experimental data as given in publication PMC4727337, “A Fluorescent Oligothiophene-Bis-Triazine ligand interacts with PrP fibrils and detects SDS-resistant oligomers in human prion diseases” (2016).
# “And” between values parts separate entries of the source, which are not always exact repeats. Equal values may be shown once.
# Biological target: PrP^Sc of 22 L-infected mouse brain homogenate (mouse (endogenous in brain)) (UniProt P04925)
substance,measurement,value
PrP^Sc of 22 L-infected mouse brain homogenate (from UniProt P04925 23-230),stoichiometry N,2 and 3
